Anti-infective test results gathered from many reports (values: NIAID ChemDB through PubChem).

Shared fields: whole-cell or culture tests; organism: Human cytomegalovirus

ECn is the concentration giving n% inhibition of infection, replication or growth. Inhibition is in % at the dose shown (toxicity tests: loss of growth or viability). An empty or dashed field is not shown. Lines come from different laboratories, so protocols vary.

smiles | tested at | endpoint | cell line | strain | read by | value
Brc1ccc(Nc2ncnc3ccccc23)cc1 | 1.1 µM | inhibition | HFF | AD169-GFP | plaque count | 7%
COc1cccc(N2CCN(C3=Nc4c(F)cccc4[C@H](CC(=O)O)N3c3cc(C(F)(F)F)ccc3OC)CC2)c1 | - | EC50 | - | Clinical isolate 13 | plaque count | 0.0023 µM
CC(C)Nc1nc2cc(Cl)c(Cl)cc2n1[C@H]1O[C@@H](CO)[C@H](O)[C@@H]1O | - | EC50 | HFF | AD169 | plaque count | 19.4 µM
CC(C)Nc1nc2cc(Cl)c(Cl)cc2n1[C@H]1O[C@@H](CO)[C@H](O)[C@@H]1O | - | EC50 | MRC-5 | C9003 | hybridisation | 0.12 µM
OC[C@H]1O[C@@H](n2c(Cl)nc3cc(Cl)c(Cl)cc32)[C@H](O)[C@@H]1O | - | EC95 | - | Recombinant C4 (D341E) | virus yield | 39 µM
Cn1cc(C(=O)NCc2ccc(Cl)cc2)c(=O)c2cc(CN3CCOCC3)ccc21 | 10.5 µM | inhibition | HFF | HA | plaque count | 90%
Nc1nc2c(ncn2COC(CO)CO)c(=O)[nH]1 | - | EC50 | MRC-5 | 9219REC7 (LEU595DEL) | hybridisation | 1.8 µM
O=C(NCc1ccc(Cl)cc1)c1c[nH]c2ccc(CCCO)cc2c1=O | - | EC50 | - | NEW | plaque count | 1.3 µM
Nc1ccn([C@@H]2O[C@H](CO)[C@@H](O)[C@@H]2O)c(=O)n1 | 0.02 µM | inhibition | HEL | - | plaque count | 51.1%
Nc1ncnc2c1ncn2C=C1CC1CO | - | EC50 | - | VR5611 (ganciclovir-susceptible) | plaque count | 1.7 µM
Nc1nc2c(ncn2COC(CO)CO)c(=O)[nH]1 | - | EC50 | HFF | DAVIS | plaque count | 4.3 µM
OC[C@H]1O[C@@H](n2c(Br)nc3cc(Cl)c(Cl)cc32)[C@H](O)[C@@H]1O | - | EC50 | HFF | C4 (BDCRB-resistant) | virus yield | <23 µM
OC[C@H]1O[C@@H](n2c(Br)nc3cc(Cl)c(Cl)cc32)[C@H](O)[C@@H]1O | - | EC50 | HFF | Coffman | plaque count | 1.1 µM
Nc1nc2c(ncn2COC(CO)CO)c(=O)[nH]1 | - | EC50 | HFF | C4 (BDCRB-resistant) | plaque count | 2.8 µM
Nc1nc2c(ncn2COCCO)c(=O)[nH]1 | 10 µM | inhibition | HEL | - | plaque count | 23.8%

For reference, 2 entries again:

{"smiles": "OC[C@H]1O[C@@H](n2c(Br)nc3cc(Cl)c(Cl)cc32)[C@H](O)[C@@H]1O", "endpoint": "EC50", "cell line": "HFF", "strain": "C4 (BDCRB-resistant)", "read by": "virus yield", "value": "<23 µM"}
{"smiles": "Brc1ccc(Nc2ncnc3ccccc23)cc1", "tested at": "1.1 µM", "endpoint": "inhibition", "cell line": "HFF", "strain": "AD169-GFP", "read by": "plaque count", "value": "7%"}